Measured values from paper PMC6036174 (Frontiers in Microbiology, 2018).

Experiments:
[1] = tested on: M. tuberculosis H37Rv (ATCC 27294); assay: resazurin microtiter assay, MIC against M. tuberculosis H37Rv; type: cell-based, Mycobacterium tuberculosis; settings: for SI A549: CC50 A549 / MIC M. tuberculosis H37Rv; for SI VERO: CC50 VERO / MIC M. tuberculosis H37Rv
M. tuberculosis CDC1551 = assay: broth tube MIC (visible pellet) against M. tuberculosis CDC1551; type: cell-based, Mycobacterium tuberculosis; settings: for SI A549: CC50 A549 / MIC M. tuberculosis CDC1551; for SI VERO: CC50 VERO / MIC M. tuberculosis CDC1551
M. tuberculosis H37Rv = settings: ref Oliveira et al., [2014]; cited from earlier work

Row | SMILES | SI A549 [1] | SI VERO [1] | SI A549 (M. tuberculosis CDC1551) | SI VERO (M. tuberculosis CDC1551) | SI (measured against VERO cells) (M. tuberculosis H37Rv)
1 | O.O.O.O.O.O=C([O-])c1ccc(C(=O)[O-])cc1.[Mn+2].c1cnc2c(c1)ccc1cccnc12.c1cnc2c(c1)ccc1cccnc12 [compound 9, [Mn(tereph)(phen)2]·5H2O] | 74 | 14 | 663 | 123 | 
2 | C/C(=N\NC(=S)Nc1ccccc1)c1ccccn1.C/C(=N\NC(=S)Nc1ccccc1)c1ccccn1.[Mn+2] [[Mn(atc-Ph)2]] |  |  |  |  | > 641
3 | CNC(=S)N/N=C(\C)c1ccccn1.CNC(=S)N/N=C(\C)c1ccccn1.[Mn+2] [[Mn(atc-Me)2]] |  |  |  |  | 5.3
4 | O.O.O.O.O=C([O-])c1cccc(C(=O)[O-])c1.O=C([O-])c1cccc(C(=O)[O-])c1.[Mn+2].[Mn+2].c1cnc2c(c1)ccc1cccnc12.c1cnc2c(c1)ccc1cccnc12.c1cnc2c(c1)ccc1cccnc12 [compound 7, [Mn2(isoph)2(phen)3]·4H2O] | 164 |  |  |  | 
5 | O.O.O.O.O.O.O.O.O.O.O.O.O.O.O.O.O=C([O-])c1cccc(C(=O)[O-])c1.O=C([O-])c1cccc(C(=O)[O-])c1.[Mn+2].[Mn+2].c1cnc2c(c1)ccc1cccnc12.c1cnc2c(c1)ccc1cccnc12.c1cnc2c(c1)ccc1cccnc12.c1cnc2c(c1)ccc1cccnc12.c1cnc2c(c1)ccc1cccnc12 [compound 8, {[Mn(phen)2(H2O)2]}2(isoph)2(phen)·12H2O] | 84 | 16 | 1325 | > 240 | 
6 | O.O.O.O.O.O=C([O-])c1ccccc1C(=O)[O-].[Mn+2].c1cnc2c(c1)ccc1cccnc12.c1cnc2c(c1)ccc1cccnc12 [compound 6, [Mn(ph)(phen)2(H2O)]·4H2O] | 183 | 8 | 682 | 31 | 
7 | NNC(=O)c1ccncc1 [INH, Isoniazid, reference compound] | 5284 | 5513 | 5284 | 5513 | 
8 | c1cnc2c(c1)ccc1cccnc12 [phen, 1,10-phenanthroline, reference compound] | 0.39 | 1 | 1.43 | 3 | 
9 | O.O.[Cl-].[Cl-].[Mn+2] [MnCl2·2H2O, reference compound] | <6.2 | <3.7 |  |  | 
10 | O.O.O=C([O-])c1ccccc1C(=O)[O-].[Mn+2].c1cnc2c(c1)ccc1cccnc12 [compound 5, [Mn(ph)(phen)(H2O)2]] | 411 | 27 | 1234 | >82 | 
